Results published in ChEMBL document CHEMBL3244321, “Nitramino acids. Synthesis and biological evaluation of 1-nitroproline, 1-nitropipecolic acid, and N-nitrosarcosine” (J Med Chem, 1977).
The source made the active and inactive calls.

Legend:
Format in all cases: functional, organism-based
Candida albicans [1] = test: Antifungal activity against Candida albicans clinical isolate assessed as inhibition of fungal growth up to 100 ug/ml after 16 hrs by spectrophotometer
Procedure, shortened: (§1)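 Yeast nitrogen base (pH 7.0), with compound at 10, 25, 50 and 100 µg/mL. Incubated 16 h at 37 °C with 150 rpm rotary shaking. Turbidity was read at 600 nm.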

Candida albicans [2] = test: Antifungal activity against Candida albicans ATCC 11651 assessed as inhibition of fungal growth up to 100 ug/ml after 16 hrs by spectrophotometer; procedure, shortened: as §1
[3] = test system: Mycolicibacterium smegmatis; test: Antibacterial activity against Mycobacterium smegmatis H607 assessed as inhibition of bacterial growth up to 100 ug/ml after 22 hrs by spectrophotometer
Procedure, shortened: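 Sauton synthetic medium, with compound at 10, 25, 50 and 100 µg/mL. Incubated 22 h at 37 °C with rotary shaking at 150 rpm. Growth was measured turbidimetrically at 600 nm.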

Escherichia coli = test: Antibacterial activity against Escherichia coli ATCC 25922 assessed as inhibition of bacterial growth at up to 100 ug/ml after 16 hrs by spectrophotometer
Procedure, shortened: (§2)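 Tested at 10, 25, 50 and 100 µg/mL in Mueller-Hinton broth at 37 °C with rotary shaking at 150 rpm. Incubation was 16 h for E. coli and 7 h for P. aeruginosa. Growth was read turbidimetrically at 600 nm.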

Pseudomonas aeruginosa = test: Antibacterial activity against Pseudomonas aeruginosa ATCC 27853 assessed as inhibition of bacterial growth at up to 100 ug/ml after 7 hrs by spectrophotometer; procedure, shortened: as §2

Measured: inhibition

CN(CC(=O)O)[N+](=O)[O-]
inactive: Candida albicans [1] | Candida albicans [2] | [3] | Escherichia coli | Pseudomonas aeruginosa
